Laboratory results: PubChem BioAssay AID624099 (ICCB-Longwood, 2012)

Screen: 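Knock-downs relieving repression by E2 of an HPV18 LCR luciferase reporter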 (primary screen)
Cell system: human C33A cervical carcinoma cells (HPV-negative) stably expressing BPV1 E2 and an HPV18 LCR luciferase reporter
Knock-down reagent: siRNA pool against human genes, 40 nM
Duration: 72 h
Measured: 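HPV18 LCR reporter light per well, converted to plate-wise z-scores that exclude control wells, and averaged over triplicate plates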
Scale: mean z-score and z-score: higher = stronger reporter signal, weaker E2 silencing
Rule for the call: 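Hit if mean z-score reaches 2 and two or more of three replicate z-scores also reach 2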
Shown is an unselected part of about 21,000 reagents tested. 497 of them (2.4%) were called active. 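Higher z means weaker E2 silencing; only reporter increases were scored, and knock-downs that hurt cell survival may mask genuine repressor factors.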

Target gene | PubChem SID | mean z-score | z-score, replicate A | z-score, replicate B | z-score, replicate C | outcome
CDC25A | SID56478586 | 0.56 | 0.49 | 0.52 | 0.67 | inactive
LCIIAR | SID134328525 | 0.71 | 0.5 | 0.53 | 1.11 | inactive
USP17L7 | SID134327985 | 1.47 | 1.06 | 1.7 | 1.64 | inactive
LOC401006 (retired record) | SID134327218 | 0.52 | 0.83 | 0.2 | 0.54 | inactive
IGHG4 | SID134329725 | 0.74 | 1.02 | 0.37 | 0.82 | inactive
RASSF7 | SID134323335 | -0.03 | -0.11 | 0.3 | -0.26 | inactive
SYCP3 | SID134320037 | -0.24 | -0.54 | 0.09 | -0.26 | inactive
KRT74 | SID134321895 | -0.22 | 0.04 | -0.22 | -0.47 | inactive
CD3G | SID134315370 | 0.4 | 0.32 | 0.5 | 0.39 | inactive
ZNF830 | SID134319193 | -0.69 | -0.82 | -1.22 | -0.04 | inactive
RBPMS2 | SID134323138 | -0.41 | -0.34 | -0.43 | -0.46 | inactive
COX6C | SID134317385 | -1.72 | -1.8 | -1.61 | -1.76 | inactive
PRX | SID134329232 | -0.5 | -0.76 | -0.52 | -0.21 | inactive
NME3 | SID56479118 | -1.33 | -1.53 | -1.45 | -1.02 | inactive
SPANXN3 | SID134326227 | 0.2 | 0.07 | 0 | 0.52 | inactive
ZNF835 | SID134325869 | 0.52 | 0.51 | 0.43 | 0.62 | inactive
ARL2 | SID134315912 | 1.58 | 1.61 | 1.43 | 1.71 | inactive
WNT4 | SID134313518 | 1.37 | 1.35 | 1.14 | 1.61 | inactive
REG3G | SID134326809 | 2.28 | 2.06 | 2.27 | 2.51 | active
HOMEZ | SID134318270 | -1.17 | -1.22 | -1.02 | -1.28 | inactive
MYH11 | SID134316056 | -1.48 | -1.36 | -1.86 | -1.22 | inactive
GPR151 | SID134311137 | 0.06 | -0.29 | 0.32 | 0.16 | inactive
ROR2 | SID56478550 | 0.46 | 0.6 | 0.45 | 0.33 | inactive
TWF2 | SID56478547 | 0.32 | 0.36 | 0.23 | 0.37 | inactive
H2BC4 | SID134315782 | -0.99 | -0.82 | -0.99 | -1.17 | inactive
CGB5 | SID134317888 | -0.22 | -0.2 | -0.16 | -0.3 | inactive
RMND5B | SID134320325 | -0.76 | -0.81 | -0.56 | -0.9 | inactive
MS4A12 | SID134317597 | 0.8 | 0.67 | 0.74 | 1 | inactive
NDUFA5 | SID134316305 | -0.73 | -0.71 | -0.79 | -0.7 | inactive
PIK3C2G | SID56479136 | 1.91 | 0.99 | 3.67 | 1.06 | inactive
SNRNP70 | SID134322649 | 0.79 | 0.88 | 0.74 | 0.75 | inactive
ZNF804A | SID134323144 | 0.36 | 1.01 | 0.05 | 0.03 | inactive
CALCOCO2 | SID134315132 | -1.87 | -2.27 | -1.48 | -1.87 | inactive
GAGE12I | SID134315628 | -1.18 | -0.99 | -0.99 | -1.55 | inactive
TFPI | SID134323680 | 0 | -0.04 | 0.09 | -0.05 | inactive
ZMYND11 | SID134312062 | -0.38 | -0.46 | -0.37 | -0.31 | inactive
CCDC144NL | SID134325671 | -0.08 | -0.15 | -0.07 | -0.02 | inactive
DDOST | SID134319810 | 0.7 | 0.59 | 0.55 | 0.96 | inactive
MBNL2 | SID134329667 | -0.43 | -0.44 | -0.34 | -0.51 | inactive

Hits, among the entries above:
Target gene | PubChem SID | mean z-score | z-score, replicate A | z-score, replicate B | z-score, replicate C | outcome
REG3G | SID134326809 | 2.28 | 2.06 | 2.27 | 2.51 | active
